The values that follow are results of earlier work, collected in PMC6882899 (Scientific Reports, 2019).

This data set has as its system fish. The settings on record: cited from earlier work.

For the molecule `CC[C@H](C)[C@@H]1NC(=O)[C@H](CC(C)C)NC(=O)[C@@H]2CSSC[C@@H](C(N)=O)NC(=O)[C@H](Cc3ccccc3)NC(=O)[C@H](CCCCN)NC(=O)[C@H](CCCCN)NC(=O)[C@H](Cc3c[nH]cn3)NC(=O)[C@H](CC(N)=O)NC(=O)[C@H](CCCNC(=N)N)NC(=O)[C@H](CCCNC(=N)N)NC(=O)[C@H](CSSC[C@H](NC(=O)[C@H](CCCNC(=N)N)NC(=O)[C@H](Cc3c[nH]c4ccccc34)NC(=O)[C@H](CC(N)=O)NC(=O)[C@@H](N)Cc3ccccc3)C(=O)N2)NC(=O)[C@H](C)NC(=O)[C@@H]2CCCN2C1=O`, the “effect of injection into fish, in words” value was “non-lethal”.
